Results: publication PMC2987829, “Autoacetylation of the Ralstonia solanacearum Effector PopP2 Targets a Lysine Residue Essential for RRS1-R-Mediated Immunity in Arabidopsis” (PLoS Pathogens, 2010)

Target: T1, RRS1-R-YFPv (Arabidopsis thaliana (Nd-1 ecotype), UniProt E1B328 1-1378)
T1 construct: not shown: YFPv, C-terminal, kept
T1 sequence: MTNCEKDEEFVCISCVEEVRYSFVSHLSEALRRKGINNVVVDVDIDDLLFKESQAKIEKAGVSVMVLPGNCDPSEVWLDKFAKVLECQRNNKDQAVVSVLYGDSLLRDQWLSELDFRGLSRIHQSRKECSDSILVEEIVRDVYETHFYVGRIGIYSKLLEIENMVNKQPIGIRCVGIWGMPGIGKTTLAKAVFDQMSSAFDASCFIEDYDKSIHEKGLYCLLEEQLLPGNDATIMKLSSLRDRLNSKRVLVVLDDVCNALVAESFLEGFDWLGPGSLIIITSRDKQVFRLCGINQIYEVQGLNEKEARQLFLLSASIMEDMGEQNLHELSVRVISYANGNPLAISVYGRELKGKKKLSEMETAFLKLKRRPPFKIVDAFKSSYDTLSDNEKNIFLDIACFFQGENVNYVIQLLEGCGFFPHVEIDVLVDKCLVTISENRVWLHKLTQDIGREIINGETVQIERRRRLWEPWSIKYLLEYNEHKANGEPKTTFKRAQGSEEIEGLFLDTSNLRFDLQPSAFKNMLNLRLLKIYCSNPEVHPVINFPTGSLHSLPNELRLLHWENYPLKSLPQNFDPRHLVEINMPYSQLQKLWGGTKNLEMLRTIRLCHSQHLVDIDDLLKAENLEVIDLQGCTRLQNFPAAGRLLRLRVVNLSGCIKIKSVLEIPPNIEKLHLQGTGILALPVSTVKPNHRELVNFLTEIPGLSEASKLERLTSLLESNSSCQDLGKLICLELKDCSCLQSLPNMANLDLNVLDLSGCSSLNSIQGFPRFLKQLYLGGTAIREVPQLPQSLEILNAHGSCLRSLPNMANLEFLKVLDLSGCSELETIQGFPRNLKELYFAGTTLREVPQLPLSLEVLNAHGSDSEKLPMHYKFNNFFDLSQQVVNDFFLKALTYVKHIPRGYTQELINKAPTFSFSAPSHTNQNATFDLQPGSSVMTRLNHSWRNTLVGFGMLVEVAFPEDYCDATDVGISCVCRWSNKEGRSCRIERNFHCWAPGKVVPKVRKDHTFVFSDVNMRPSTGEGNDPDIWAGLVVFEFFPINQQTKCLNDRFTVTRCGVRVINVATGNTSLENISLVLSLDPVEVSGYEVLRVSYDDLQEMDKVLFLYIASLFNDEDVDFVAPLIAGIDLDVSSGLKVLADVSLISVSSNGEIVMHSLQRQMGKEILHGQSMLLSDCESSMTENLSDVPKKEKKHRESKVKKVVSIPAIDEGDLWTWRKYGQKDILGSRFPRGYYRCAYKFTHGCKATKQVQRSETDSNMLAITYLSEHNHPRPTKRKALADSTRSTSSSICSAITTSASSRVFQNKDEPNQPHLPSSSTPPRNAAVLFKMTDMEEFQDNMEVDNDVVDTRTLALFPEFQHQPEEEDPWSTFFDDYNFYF
Assay: FRET or BRET

B1: PopP2-K383R-CFP (natural protein)
chain: MKVSSANAGVPASSADNTSARPSQTNADTTPLGRRRRAPDDAPGSPPARRQRQDSPEDSAQTMFRRAGMTSLPPSPATSEHVPLLDNRPTLERMGVDHPLPGRTWYETGHTTASLADRTSTASAAQVASSSRSAGPATAARPQPTRTSAGQQATVGRLRTQVTGFLSGALGKLQALSAQNMDPELAQFRVLDVDRAIMPLLIVAENARNPGLNLVPLHMDMAEDEEVRTQPPMAGSRHIAEFVASARPGRYRAVIDDGSHTRAADIRKDASGTSVIVVDPLRKEKDESAYVDYADNVNMEFGEHAKCAFIPVDIQKSFFDCRILSLSLALKMHDKDDAFAAFHETLRNGGDPSHHVSRAQQTEELGATLVLDGAPLVDARMMRHGQAASSVSRYLGNHPEQSTVPVNKRNETLGERTTRHLVKRKVRNRADSEGRVTSGETKEITFSNSVEQKRIALLNRAASYVNSAPPPVVMRMAKLLQDSLLDTN
- FRET efficiency E: 12.6%
- decrease of donor lifetime (delta t = tauD - tauDA): 298 ps
- mean CFP donor lifetime with acceptor (tau): 2.06 ns

B2: PopP2-C321A-CFP (natural protein)
chain: MKVSSANAGVPASSADNTSARPSQTNADTTPLGRRRRAPDDAPGSPPARRQRQDSPEDSAQTMFRRAGMTSLPPSPATSEHVPLLDNRPTLERMGVDHPLPGRTWYETGHTTASLADRTSTASAAQVASSSRSAGPATAARPQPTRTSAGQQATVGRLRTQVTGFLSGALGKLQALSAQNMDPELAQFRVLDVDRAIMPLLIVAENARNPGLNLVPLHMDMAEDEEVRTQPPMAGSRHIAEFVASARPGRYRAVIDDGSHTRAADIRKDASGTSVIVVDPLRKEKDESAYVDYADNVNMEFGEHAKCAFIPVDIQKSFFDARILSLSLALKMHDKDDAFAAFHETLRNGGDPSHHVSRAQQTEELGATLVLDGAPLVDARMMKHGQAASSVSRYLGNHPEQSTVPVNKRNETLGERTTRHLVKRKVRNRADSEGRVTSGETKEITFSNSVEQKRIALLNRAASYVNSAPPPVVMRMAKLLQDSLLDTN
- FRET efficiency E: 15%
- decrease of donor lifetime (delta t = tauD - tauDA): 354 ps
- mean CFP donor lifetime with acceptor (tau): 2.02 ns
